T1: Fusarium oxysporum lipase (FoL) variant I207E (Fusarium oxysporum)
T1 chain: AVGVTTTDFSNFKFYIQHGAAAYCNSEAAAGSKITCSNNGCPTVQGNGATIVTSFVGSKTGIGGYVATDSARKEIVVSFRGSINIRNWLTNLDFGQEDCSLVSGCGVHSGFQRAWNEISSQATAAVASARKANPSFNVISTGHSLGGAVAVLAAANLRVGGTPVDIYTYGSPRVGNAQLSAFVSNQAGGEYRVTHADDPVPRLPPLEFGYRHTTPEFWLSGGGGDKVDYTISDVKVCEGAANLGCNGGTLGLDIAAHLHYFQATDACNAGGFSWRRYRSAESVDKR

T2: Fusarium oxysporum lipase (FoL), wild type (Fusarium oxysporum)
T2 chain: T1 chain with E207I

B1: Peptide P4 (Y308E) (peptide)
peptide: ATMTDAELEKKLNSYVQMDKEEVKNNQARS
modifications: not checked
B2: Peptide P2 (E295T) (peptide)
peptide: B1 peptide with E9T, E22Y
modifications: not checked
B3: Peptide P3 (K297R) (peptide)
peptide: B1 peptide with K11R, E22Y
modifications: not checked
B4: Peptide P1 (D291E) (peptide)
peptide: B1 peptide with D5E, E22Y
modifications: not checked

The text below walks through data of patent US20090275083A1, “Isolated peptides having phospholipase inhibitory activity” (published 2009).

Substitutions are numbered along the chain they refer to. Numbers in names are those of the source.

In one test the target is T1, Fusarium oxysporum lipase (FoL) variant …. The test is described as follows: cell-based or functional assay.
With B1, the IC50 (half maximal inhibitory concentration; p-NP butyrate hydrolysis) (peptide/lipase ratio) was more than 1000.

In the case of B2, the IC50 (half maximal inhibitory concentration; p-NP butyrate hydrolysis) (peptide/lipase ratio) turned out to be 782.

B3: the IC50 (half maximal inhibitory concentration; p-NP butyrate hydrolysis) (peptide/lipase ratio) was 301. For B4, the IC50 (half maximal inhibitory concentration; p-NP butyrate hydrolysis) (peptide/lipase ratio) turned out to be 1010.

The next test concerns the target T2, Fusarium oxysporum lipase (FoL), wild …. The test is described as follows: cell-based or functional assay.
With B2, the IC50 (half maximal inhibitory concentration; p-NP butyrate hydrolysis) (peptide/lipase ratio) was more than 1000. On the same count and under the same terms, for B3 the value was 1560.
